Assay results from US20090197910A1, “NOVEL VIRAL REPLICATION INHIBITORS” (KATHOLIEKE UNIVERSITEIT LEUVEN, priority 2006, published 2009).

Tested on: HCV Subgenomic Replicon
Experiment: HCV-Huh-5-2 replicon cell assay (luciferase)
Format: cell-based, Hepatitis C virus
Settings: Huh-5-2 cells
Experimental: Huh-5-2 cells [a cell line with a persistent HCV replicon I3891uc-ubi-neo/NS3-3′/5.1; replicon with firefly luciferase-ubiquitin-neomycin phosphotransferase fusion protein and EMCV-IRES driven NS3-5B HCV polyprotein] was cultured in RPMI medium (Gibco) supplemented with 10% fetal calf serum, 2 mM L-glutamine (Life Technologies), 1× non-essential amino acids (Life Technologies); 100 IU/ml penicillin and 100 ug/ml streptomycin and 250 ug/ml G418 (Geneticin, Life Technologies). Cells were seeded at a densitiy of 7000 cells per well in 96 well View Plate™ (Packard) in medium containing the same components as described above, except for G418. Cells were allowed to adhere and proliferate for 24 hr. At that time, culture medium was removed and serial dilutions of the test compounds were added in culture medium lacking G418. Interferon alfa 2a (500 IU) was included as a positive control. Plates were further incubated at 37° C. and 5% CO2 for 72 hours. […] Luciferase activity is measured by adding 50 μl of 1× Glo-lysis buffer (Promega) for 15 minutes followed by 50 ul of the Steady-Glo Luciferase assay reagent (Promega). Luciferase activity is measured with a luminometer and the signal in each individual well is expressed as a percentage of the untreated cultures. […] Instead the density of the culture is measured by means of the MTS method (Promega).

For CC(=O)OCC1OC(n2c(SCc3cc4cc(Br)ccc4oc3=O)nc3cc(Cl)c(Cl)cc32)C(OC(C)=O)C(OC(C)=O)C1OC(C)=O (stereo not shown) [Compound 7g, Acetic acid 3,5-diacetoxy-2-acctoxymethyl-6-[2-(6-bromo-2-oxo-2H-chromen-3-ylmethylsulfanyl)-5,6-dichloro-benzoimidazol-1-yl]-tetrahydro-pyran-4-yl ester], the “SI (selectivity index, ratio of CC50 to EC50)” value was over 15.9.
